Common to all, as to assay: pseudovirus neutralization IC50; higher = weaker neutralization
Assay [1] concerns the target SARS-CoV-2 Omicron BA.1 spike pseudovirus. On the procedure: (§1)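 Single-round VSV luciferase pseudovirus mixed with antibody dilutions for 1 h and put on Huh-7 cells for about a day; IC50 from the dose curve.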
Assay [2] addresses SARS-CoV-2 Omicron BA.2 spike pseudovirus. The method, then:
as §1

Assay [3] addresses SARS-CoV-2 Omicron BA.2.75 spike pseudovirus. The method, then: as §1
Assay [4] addresses SARS-CoV-2 Omicron BA.5 spike pseudovirus. The method, then: as §1
In assay [5] the target is SARS-CoV-2 Omicron BQ.1.1 spike pseudovirus. On the procedure: as §1
Assay [6] deals with SARS-CoV-2 Omicron XBB spike pseudovirus. On the procedure: as §1
Assay [7] deals with SARS-CoV-2 early D614G spike pseudovirus. The method, then: as §1

Human monoclonal antibodies against the spike receptor-binding domain (heavy:light variable regions). IC50 against pseudoviruses bearing the spike of naturally observed variants; lower = stronger; >10 µg/ml means not reached at the top dose. No active / inactive call. The stated detection limit is 0.0005 µg/ml; values near or below 0.001 µg/ml lie at the floor of the assay. Bounds are passed on as bounds.

B1: BD55-6686 (protein)
chain 1: DVQLLESGGGLVQPGGSLRLSCAASGFTFSNYAMNWVRQAPGKGLEWVSGTSSSGSGTVYADSVKGRFTMSRDNSKNTLYLQMNSLRADDAAVYYCVKDFGTSITFDVFDMWGQGTMVTVSS
chain 2: DIQMTQSPSSLSASVGDRVTLTCRASQNIINYLNWYQQRPGKAPKLLIYGASNLQSGVPSRFSGSGSGTDFTLTINSLQPEDFATYYCQQSYETPPLTFGGGTKVEIK
On to B1, for which the “pseudovirus neutralization IC50” value in assay [1], in assay [2], in assay [3], in assay [4], in assay [5] and in assay [6] was above 10 µg/mL throughout. Moreover, the “pseudovirus neutralization IC50” value in assay [7] is above 10 µg/mL.

B2: BD55-6684 (protein)
chain 1: EVQLVQSGAEVKKPGESLKISCKGSGYSFTTYWLGWVRQVPGKGLESMGIIYPGDSDTKYSPSFQGQVTISVDKSISTAYLQWSSLQASDTGIYYCASSFWGVGLTHAFDIWGQGTMVTVSS
chain 2: DIQMTQSPSTLSASVGDRVTITCRASQSISSWLAWYQQKPGKAPKILIYKASTLESGVPSRFSGSGSGTKFTLTITSLQPDDFATYYCQQYSSYSRTFGQGTKVEIK
On to B2, for which the “pseudovirus neutralization IC50” value in assay [1], in assay [2], in assay [3], in assay [4], in assay [5] and in assay [6] was above 10 µg/mL throughout. Besides, the “pseudovirus neutralization IC50” value in assay [7] is 1.72 µg/mL.

B3: BD55-6685 (protein)
chain 1: QPQLRESGSGLVRPSQTLSLTCGVSGASISSDGYSWAWIRQPPGMGLEWIGYIHQSGSTFYDPSFQSRVTISVDRSKNNLTLKLASVTAADSAVYFCARILRDDKPVEGVFDIWGQGTMVIVSS
chain 2: EIVMTQSPATLPVSPGERATLSCRASQYVSSNLAWYQQKPGQAPRLLIYGTSTRAAGIPTRFSGSGSGTEFTLTISSLQSNDFAVYYCQQYHNWPLWTFGQGTKVEI
As to B3, the “pseudovirus neutralization IC50” value in assay [1], in assay [2], in assay [3], in assay [4], in assay [5] and in assay [6] was above 10 µg/mL in each case. Further, in assay [7], the “pseudovirus neutralization IC50” value is above 10 µg/mL.

B4: BD55-6683 (protein)
chain 1: QVQLQESGPRLVKPSQTLSLTCTVSGDSISSGNYYWSWIRQPAGKGMEWIGRIYSRGSTKYTNYRPSLGSRVTMSVDTSKNQFSLKLNSVTAADTAVYYCARGGCDTTSCFGFYFYAMDVWGQGTTVTVSS
chain 2: DIQMTQSPSSLSASVGDRVTITCQASHDINNHLNWYQQKLGTAPKLLIYDASNLQTGVPPRFSGSASGAHFTLTISSLQPEDFATYFCQQYRDLPLTFGPGTKVDFK
Regarding B4, the “pseudovirus neutralization IC50” value in assay [1], in assay [2], in assay [3], in assay [4], in assay [5] and in assay [6] was above 10 µg/mL throughout. Besides, in assay [7], the “pseudovirus neutralization IC50” value stood at 2.22 µg/mL.

B5: BD55-6674 (protein)
chain 1: EVKLVESGGGLVQPGGSLRLSCAGSGFIFSDHWMSWVRQTPGKGLEWVANINQDGSERYYVDSVRGRFTISRDDAKKSLSLQMNGLTVEDTAVYYCARGDSIRWYTEYFQLWGQGALVTVSS
chain 2: SELTQPPSLSVSPGQTARVSCSGDALARQHAYWYQQKPGQAPVLLIYKDKERPSGIPERFSGSDSGTTATLTITGVQAEDEADYFCQSADSSASHYVFGSGTKVTVL
As for B5, the “pseudovirus neutralization IC50” value in assay [1], in assay [2], in assay [3], in assay [4], in assay [5] and in assay [6] was above 10 µg/mL throughout. For the same molecule, the “pseudovirus neutralization IC50” value in assay [7] was above 10 µg/mL.

B6: BD55-6682 (protein)
chain 1: QVQLQESGPGVVKPSETLSLTCTVSGGSTNSDSWSWIRQSPGKGLEWIGYIYYSGTTNYNPSLMSRVTISLDTSKNQFFLKLGSVTAADTAVYYCARETRSQVGFYYMDVWGKGTTVTVSS
chain 2: DIQMTQSPSSLSASVGDRVTITCRASQSISTYLNWYQQKPGKAPKVLIYAASSLQSGVPSRFSGSGSGRDFTLTITKLQPEDFATYYCQQSYTVPPYTFGQGTKLET
With B6, the “pseudovirus neutralization IC50” value in assay [1], in assay [2], in assay [3], in assay [4], in assay [5] and in assay [6] was above 10 µg/mL in each case. The “pseudovirus neutralization IC50” value in assay [7] is above 10 µg/mL.

(Values after the supplement of paper PMC9931576.)
